Measured values as given in patent US20230382979A1 (ADAPTIVE BIOTECHNOLOGIES, published 2023).

Target: K417N_E484K_N501Y_RBD (SARS-CoV-2)
Assay: dose-response ELISA on K417N_E484K_N501Y_RBD

B1: antibody 2729 (antibody, V domains shown)
VH: QVTLKESGPVLVKPTETLTLTCTVSGFSLSNARMGVSWIRQPPGKALEWLAHIFSNDEKSYSTYLKSRLTISKDSSKSQVVLTMTIMDPVDTATYYCARTAGRYSSRWGHYYYYMDVWGKGTTVTVSS
VL: NFMLTQPHSVSESPGKTVTISCTGSNGSIASNFMQWYQQRPGSAPTIVIYEDNQRPSGVPDRFSGSIDGSSNSASLTISGLKTEDEADYYCQSYDSSDSDLGVFGGGTKLTVL
- EC50 (read off the curve): ~10 ng/mL
